In PMC9642902 (2022):

Target: T1, potato ATG8-2.2 (StATG8-2.2), protein for ITC (potato)
T1 chain: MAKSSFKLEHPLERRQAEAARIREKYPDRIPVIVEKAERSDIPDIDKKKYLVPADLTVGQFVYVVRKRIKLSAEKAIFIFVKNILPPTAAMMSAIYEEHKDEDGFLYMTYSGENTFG
Assay: ITC

B1: PiPexRD54 AIM peptide (peptide)
chain: KPLDFDWEIV
- Kd: 38 nM
